Results deposited as PubChem BioAssay AID1259414 (Drosophila RNAi Screening Center, 2018)

- Test: 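Genome-wide screen for host control of endosymbiont load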 (primary screen)
- Cell system: Drosophila JW18 cells infected with Wolbachia
- Reagent: long dsRNA against Drosophila genes, 0.25 µg dsRNA per well of a 384-well plate
- Timing: 5 days
- Treatment: cells persistently infected with Wolbachia before knock-down; no added drug
- Measurement: 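Imaged fluorescence in situ signal for Wolbachia 23S rRNA per DAPI-counted host cell, given as a robust z-score within each plate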
- Reading the numbers: Wolbachia per cell robust z: higher = more Wolbachia per host cell than the plate typical
- Active means: 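Hit when robust z is 1.5 or more, or -1.5 or less, in at least two of three replicates; excludes dsRNAs with several or no targets, genes not expressed in JW18 and well A1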
The deposit covers about 24,000 reagents; this is an unselected part of those with a known target gene and a result. Of all reagents, about 1,210 (5%) were called active. 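Inactive calls also include excluded dsRNAs with several or no targets, genes unexpressed in JW18, and well A1, regardless of score.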

{"Target gene": "mRpL23 (GeneID 38302)", "amplicon": "DRSC08307", "Wolbachia per cell robust z, rep 1": -3.34, "Wolbachia per cell robust z, rep 2": -0.0034, "Wolbachia per cell robust z, rep 3": 0.159, "outcome": "inactive"}
{"Target gene": "CG14259 (GeneID 43261)", "amplicon": "DRSC14754", "Wolbachia per cell robust z, rep 1": -0.672, "Wolbachia per cell robust z, rep 2": 0.692, "Wolbachia per cell robust z, rep 3": 0.516, "outcome": "inactive"}
{"Target gene": "janA (GeneID 43569)", "amplicon": "DRSC16972", "Wolbachia per cell robust z, rep 1": -0.44, "Wolbachia per cell robust z, rep 2": -3.44, "Wolbachia per cell robust z, rep 3": -0.605, "outcome": "inactive"}
{"Target gene": "janA (GeneID 43569)", "amplicon": "DRSC26590", "Wolbachia per cell robust z, rep 1": -0.238, "Wolbachia per cell robust z, rep 2": -1.17, "Wolbachia per cell robust z, rep 3": -0.405, "outcome": "inactive"}
{"Target gene": "CG12863 (GeneID 36623)", "amplicon": "DRSC06203", "Wolbachia per cell robust z, rep 1": -0.0882, "Wolbachia per cell robust z, rep 2": 0.36, "Wolbachia per cell robust z, rep 3": -1.17, "outcome": "inactive"}
{"Target gene": "BuGZ (GeneID 35004)", "amplicon": "DRSC02642", "Wolbachia per cell robust z, rep 1": -1.82, "Wolbachia per cell robust z, rep 2": -2.21, "Wolbachia per cell robust z, rep 3": -1.15, "outcome": "active"}
{"Target gene": "BuGZ (GeneID 35004)", "amplicon": "DRSC02643", "Wolbachia per cell robust z, rep 1": -1.1, "Wolbachia per cell robust z, rep 2": -0.217, "Wolbachia per cell robust z, rep 3": -0.353, "outcome": "inactive"}
{"Target gene": "BuGZ (GeneID 35004)", "amplicon": "DRSC25285", "Wolbachia per cell robust z, rep 1": -2.91, "Wolbachia per cell robust z, rep 2": 0.424, "Wolbachia per cell robust z, rep 3": -0.052, "outcome": "inactive"}
{"Target gene": "BuGZ (GeneID 35004)", "amplicon": "DRSC36510", "Wolbachia per cell robust z, rep 1": 1.44, "Wolbachia per cell robust z, rep 2": 1.01, "Wolbachia per cell robust z, rep 3": 2.6, "outcome": "inactive"}
{"Target gene": "BuGZ (GeneID 35004)", "amplicon": "DRSC36511", "Wolbachia per cell robust z, rep 1": -1.84, "Wolbachia per cell robust z, rep 2": -0.571, "Wolbachia per cell robust z, rep 3": 0.0885, "outcome": "inactive"}

Hits, among the entries above:
{"Target gene": "BuGZ (GeneID 35004)", "amplicon": "DRSC02642", "Wolbachia per cell robust z, rep 1": -1.82, "Wolbachia per cell robust z, rep 2": -2.21, "Wolbachia per cell robust z, rep 3": -1.15, "outcome": "active"}

Further results:
{"Target gene": "trpl (GeneID 36003)", "amplicon": "DRSC06728", "Wolbachia per cell robust z, rep 1": -0.543, "Wolbachia per cell robust z, rep 2": -0.238, "Wolbachia per cell robust z, rep 3": -1.52, "outcome": "inactive"}
{"Target gene": "trpl (GeneID 36003)", "amplicon": "DRSC06729", "Wolbachia per cell robust z, rep 1": -1.74, "Wolbachia per cell robust z, rep 2": 0.892, "Wolbachia per cell robust z, rep 3": 0.447, "outcome": "inactive"}
{"Target gene": "trpl (GeneID 36003)", "amplicon": "DRSC25485", "Wolbachia per cell robust z, rep 1": 0.415, "Wolbachia per cell robust z, rep 2": -0.284, "Wolbachia per cell robust z, rep 3": -0.775, "outcome": "inactive"}
{"Target gene": "ORMDL (GeneID 40404)", "amplicon": "DRSC11737", "Wolbachia per cell robust z, rep 1": 1.23, "Wolbachia per cell robust z, rep 2": -8.43, "Wolbachia per cell robust z, rep 3": -0.0558, "outcome": "inactive"}
{"Target gene": "ORMDL (GeneID 40404)", "amplicon": "DRSC27778", "Wolbachia per cell robust z, rep 1": 0.166, "Wolbachia per cell robust z, rep 2": 0.822, "Wolbachia per cell robust z, rep 3": 0.505, "outcome": "inactive"}
{"Target gene": "CG6290 (GeneID 32827)", "amplicon": "DRSC19979", "Wolbachia per cell robust z, rep 1": -2.91, "Wolbachia per cell robust z, rep 2": -3.45, "Wolbachia per cell robust z, rep 3": -4.76, "outcome": "inactive"}
{"Target gene": "CG6290 (GeneID 32827)", "amplicon": "DRSC25483", "Wolbachia per cell robust z, rep 1": 0.885, "Wolbachia per cell robust z, rep 2": -1.4, "Wolbachia per cell robust z, rep 3": 0.432, "outcome": "inactive"}
{"Target gene": "RanBP3 (GeneID 42804)", "amplicon": "DRSC23153", "Wolbachia per cell robust z, rep 1": -0.299, "Wolbachia per cell robust z, rep 2": 0.698, "Wolbachia per cell robust z, rep 3": 0.649, "outcome": "inactive"}
{"Target gene": "RanBP3 (GeneID 42804)", "amplicon": "DRSC27585", "Wolbachia per cell robust z, rep 1": 1.42, "Wolbachia per cell robust z, rep 2": -1.96, "Wolbachia per cell robust z, rep 3": 1.14, "outcome": "inactive"}
{"Target gene": "Ilk (GeneID 53573)", "amplicon": "DRSC11868", "Wolbachia per cell robust z, rep 1": -0.102, "Wolbachia per cell robust z, rep 2": 0.674, "Wolbachia per cell robust z, rep 3": 1.18, "outcome": "inactive"}
{"Target gene": "asp (GeneID 42946)", "amplicon": "DRSC16903", "Wolbachia per cell robust z, rep 1": -1.13, "Wolbachia per cell robust z, rep 2": -1.13, "Wolbachia per cell robust z, rep 3": -7.99, "outcome": "inactive"}
{"Target gene": "Hmu (GeneID 43294)", "amplicon": "DRSC16705", "Wolbachia per cell robust z, rep 1": -0.557, "Wolbachia per cell robust z, rep 2": -0.087, "Wolbachia per cell robust z, rep 3": -2.2, "outcome": "inactive"}
{"Target gene": "Hmu (GeneID 43294)", "amplicon": "DRSC28454", "Wolbachia per cell robust z, rep 1": -0.836, "Wolbachia per cell robust z, rep 2": 0.472, "Wolbachia per cell robust z, rep 3": 0.221, "outcome": "inactive"}
{"Target gene": "Gr61a (GeneID 38098)", "amplicon": "DRSC08358", "Wolbachia per cell robust z, rep 1": -0.638, "Wolbachia per cell robust z, rep 2": 1.41, "Wolbachia per cell robust z, rep 3": 0.987, "outcome": "inactive"}
